Results as given in paper PMC11579292.

Biological target: human angiotensin converting enzyme-2 peptidase domain (human) (UniProt Q9BYF1)
Experiment: BLI

In the case of “WT (ancestral strain) receptor binding domain (RBD) (from UniProt P0DTC2 327-528) (domain or fragment; other documents disagree on this pair)”, the Kd is reported as 31.3 nM.
